# From patent publication US20240109955A1 (published 2024)
# B1: MX1049 (bispecific antibody)
# chain: EIVLTQSPGTLSLSPGERATLSCRASQSVSSSYLAWYQQKPGQAPRLLIYSASSRATGIPDRFSGSGSGTDFTLTISRLEPEDFAVYFCQQYVGLTGWTFGQGTKVEIKGGSSGDTVMTQSPLSLPVTPGEPASISCRSSQSLLNSNGYNYLDWYVQKPGQSPQLLIYLGSNRASGVPDRFSGSGSGTDFTLKISRVEAEDVGVYYCMQPLQTPLFTFGPGTKVEIKGGGGSGGSGSGGGGSASGSGQVTLRESGPALVKPTQTLTLTCTFSGFSLSTRGVCVSWIRQPPGKALEWLAFIDWDDDKYYNTSLKTRLTISKDTSKNQVVLTMTNVHPVDTATYYCARISSHHGSSWCTTFDYWGQGALVTVSAGGSSGQMQLVQSGPEVKKPGTSVKVSCKASGFTFTSSAVQWVRQRQRLEWIGWIVVGSGNTNYAQKFQERVTITRDMSTSTAYMELSSLRSEDTAVYYCAAPNCSNVVCYDGFDIWGQGTMVTVSSASGGSGDKTHTCPPCPAPELLGGPSVFLFPPKPKDTLMISRTPEVTCVVVDVSHEDPEVKFNWYVDGVEVHNAKTKPREEQYNSYVVSVLTVLHQDWLNGKEYKCKVSNKALPAPIEKTISKAKGQPREPQVYTLPPSRDELTKNQVSLTCLVKGFYPSDIAVEWESNGQPENNYKTTPPVLDSDGSFFKKLTVDKSRWQQGNVFSCSVLHEALHSHYTQKSLSLSPG
# B2: E8 (antibody, V domains shown)
# VH: QVTLRESGPALVKPTQTLTLTCTFSGFSLSTRGVCVSWIRQPPGKALEWLAFIDWDDDKYYNTSLKTRLTISKDTSKNQVVLTMTNVHPVDTATYYCARISSHHGSSWCTTFDYWGQGALVTVSA
# VL: DTVMTQSPLSLPVTPGEPASISCRSSQSLLNSNGYNYLDWYVQKPGQSPQLLIYLGSNRASGVPDRFSGSGSGTDFTLKISRVEAEDVGVYYCMQPLQTPLFTFGPGTKVEIK
# B3: MX1047 (bispecific antibody)
# chain 1: DTVMTQSPLSLPVTPGEPASISCRSSQSLLNSNGYNYLDWYVQKPGQSPQLLIYLGSNRASGVPDRFSGSGSGTDFTLKISRVEAEDVGVYYCMQPLQTPLFTFGPGTKVEIKGGSSGEIVLTQSPGTLSLSPGERATLSCRASQSVSSSYLAWYQQKPGQAPRLLIYSASSRATGIPDRFSGSGSGTDFTLTISRLEPEDFAVYFCQQYVGLTGWTFGQGTKVEIKGGGGSGGSGSGGGGSASGSGQMQLVQSGPEVKKPGTSVKVSCKASGFTFTSSAVQWVRQRQRLEWIGWIVVGSGNTNYAQKFQERVTITRDMSTSTAYMELSSLRSEDTAVYYCAAPNCSNVVCYDGFDIWGQGTMVTVSSGGSSGQVTLRESGPALVKPTQTLTLTCTFSGFSLSTRGVCVSWIRQPPGKALEWLAFIDWDDDKYYNTSLKTRLTISKDTSKNQVVLTMTNVHPVDTATYYCARISSHHGSSWCTTFDYWGQGALVTVSAASGGSGDKTHTCPPCPAPELLGGPSVFLFPPKPKDTLMISRTPEVTCVVVDVSHEDPEVKFNWYVDGVEVHNAKTKPREEQYNSYVVSVLTVLHQDWLNGKEYKCKVSNKALPAPIEKTISKAKGQPREPQVYTLPPSRDELTKNQVSLTCLVKGFYPSDIAVEWESNGQPENNYKTTPPVLDSDGSFFKKLTVDKSRWQQGNVFSCSVLHEALHSHYTQKSLSLSPG
# chain 2: EIVLTQSPGTLSLSPGERATLSCRASQSVSSSYLAWYQQKPGQAPRLLIYSASSRATGIPDRFSGSGSGTDFTLTISRLEPEDFAVYFCQQYVGLTGWTFGQGTKVEIKGGSSGQTVVTQEPSFSVSPGGTVTLTCGLSSGSVSTAYFPSWYQQTPGQAPRTLIYGTNTRSSGVPDRFSGSILGNKAALTITGAQADDESDYYCVLYMGRGIVVFGGGTKLTVLGGGGSGGSGSGGGGSASGSGQVQLVESGGGVVQPGRSLRLSCAASGFTLSSYGMHWVRQAPGKGLEWVAVISYDGSNKYYVDSVKGRFTISRDNSKNTLYLQMNSLRAEDTAVYYCRWAYWELLPDYYYGMDVWGQGTTVTVSSGGSSGQMQLVQSGPEVKKPGTSVKVSCKASGFTFTSSAVQWVRQRQRLEWIGWIVVGSGNTNYAQKFQERVTITRDMSTSTAYMELSSLRSEDTAVYYCAAPNCSNVVCYDGFDIWGQGTMVTVSSASGGSGDKTHTCPPCPAPELLGGPSVFLFPPKPKDTLMISRTPEVTCVVVDVSHEDPEVKFNWYVDGVEVHNAKTKPREEQYNSYVVSVLTVLHQDWLNGKEYKCKVSNKALPAPIEKTISKAKGQPREPQVYTLPPSRDELTKNQVSLTCLVKGFYPSDIAVEWESNGQPENNYKTTPPVLDSDGSFFKKLTVDKSRWQQGNVFSCSVLHEALHSHYTQKSLSLSPG
# B4: A19-61.1 (antibody, V domains shown)
# VH: QVQLVESGGGVVQPGRSLRLSCAASGFTFSSYAFHWVRQAPGKGLEWVAVISYDGSNQYYADSVKGRFTISRDNSKNTLYLQMNSLRADDTAVYYCARDLAIAVAGTWHYYNGMDVWGQGTTVTVSS
# VL: DIQMTQSPSSVSASVGDRVIITCRASQGISSWLAWYQQKPGKAPKVLIYDASSLQSGVPSRFSGSGYGTDFTLTISSLQPEDSATYYCQQAKSFPITFGQGTRLEIK
# Columns and labels:
# Assay in all cases: cell-based or functional assay
# [1] = target: SARS-CoV-2 Delta variant spike protein (SARS-CoV-2, UniProt P0DTC2 14-1273)
# [2] = target: SARS-CoV-2 D614G spike protein mutant (SARS-CoV-2, UniProt P0DTC2 14-1273)
# [3] = target: SARS-CoV-2 Omicron BQ.1 spike protein (SARS-CoV-2)
# [4] = target: SARS-CoV-2 Omicron BA.2.75.2 spike protein (SARS-CoV-2)
# [5] = target: SARS-CoV-2 Omicron BQ.1.1 spike protein (SARS-CoV-2)
# [6] = target: SARS-CoV-2 Omicron BA.4/5 spike protein (SARS-CoV-2)
# [7] = target: SARS-CoV-2 Omicron XBB spike protein (SARS-CoV-2)
# [8] = target: SARS-CoV-2 spike protein, original Wuhan strain (WT) (SARS-CoV-2, UniProt P0DTC2 14-1273)
binder,measurement,setting,value
B1,"IC50, pseudovirus neutralization",[1],0.0188 mg/L
same,"IC80, pseudovirus neutralization",[1],0.022 mg/L
same,"IC80, pseudovirus neutralization",[2],0.0128 mg/L
B2,"IC50, pseudovirus neutralization",[3],0.124 mg/L
same,"IC80, pseudovirus neutralization",[3],5.19 mg/L
same,"IC50, pseudovirus neutralization",[4],0.00172 mg/L
same,"IC80, pseudovirus neutralization",[4],0.0059 mg/L
same,"IC50, pseudovirus neutralization",[5],0.496 mg/L
same,"IC80, pseudovirus neutralization",[5],1.8 mg/L
same,"IC50, pseudovirus neutralization",[6],0.00013 mg/L
same,"IC80, pseudovirus neutralization",[6],0.00049 mg/L
same,"IC50, pseudovirus neutralization",[7],0.0615 mg/L
same,"IC80, pseudovirus neutralization",[7],0.705 mg/L
B3,"IC50, pseudovirus neutralization",[1],0.0277 mg/L
same,"IC80, pseudovirus neutralization",[1],0.0469 mg/L
same,"IC80, pseudovirus neutralization",[2],0.00552 mg/L
B4,"IC80, pseudovirus neutralization",[8],0.408 nM
